Experimental data taken from patent US7888363B2, “Viral polymerase inhibitors” (Boehringer Ingelheim International GmbH, priority 2003, dated 2011).
The structures given here were assigned with low confidence; some may be wrong.

Sequences of proteins named here, by UniProt entry; tags and fusion partners are left off. Residues count along the entry.
UniProt P26663, 2420-3010 limits assumed: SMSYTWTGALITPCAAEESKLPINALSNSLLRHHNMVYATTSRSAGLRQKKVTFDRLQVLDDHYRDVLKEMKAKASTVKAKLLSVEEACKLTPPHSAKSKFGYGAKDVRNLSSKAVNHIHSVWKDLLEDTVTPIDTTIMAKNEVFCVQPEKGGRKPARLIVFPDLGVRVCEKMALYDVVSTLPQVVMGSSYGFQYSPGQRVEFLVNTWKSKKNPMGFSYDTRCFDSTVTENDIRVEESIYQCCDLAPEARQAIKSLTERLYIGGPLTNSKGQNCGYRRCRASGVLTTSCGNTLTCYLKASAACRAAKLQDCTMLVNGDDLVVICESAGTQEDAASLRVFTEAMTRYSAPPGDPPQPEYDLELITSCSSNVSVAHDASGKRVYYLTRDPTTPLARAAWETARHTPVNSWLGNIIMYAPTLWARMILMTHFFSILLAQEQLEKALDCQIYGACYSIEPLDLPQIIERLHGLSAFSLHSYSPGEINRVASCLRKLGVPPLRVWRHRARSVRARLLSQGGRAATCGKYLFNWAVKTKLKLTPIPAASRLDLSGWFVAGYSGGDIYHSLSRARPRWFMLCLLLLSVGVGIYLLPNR

Biological target: hepatitis C virus RNA dependant polymerase (NS5B) (Hepatitis C virus genotype 1b, UniProt P26663)
Test: Inhibition of NS5B RNA dependent RNA polymerase activity
Assay type: biochemical
Procedure: A suitable assay is described in the examples.
Inhibition of NS5B RNA Dependent RNA Polymerase Activity
The compounds of the invention were tested for inhibitory activity against the hepatitis C virus RNA dependant polymerase (NS5B), according to protocol described in WO 03/010141

For `O=C(O)c1ccc2c(C3CCCC3)c(-c3ccoc3)n(CC(=O)N3CCOCC3)c2c1`, the IC50 (Table 1, HCV NS5B polymerase) was < 200 nM.
In the case of `CCOc1ccc2nc(S(=O)(=O)NC(=O)c3ccc4c(C5CCCCC5)c(-c5ccoc5)n(CC(=O)N5CCOCC5)c4c3)sc2c1`, the IC50 (Table 2, HCV NS5B polymerase) is reported as < 200 nM.
With `O=C(NCc1ccccc1Sc1ccccc1CO)c1ccc2c(c1)c(C1CCCCC1)c(-c1ccoc1)n2CC(=O)N1CCC(N2CCCC2)CC1` the IC50 (Table 7, class ranges) was 1000 to 10000 nM.
In the case of `COC(=O)[C@]1(NC(=O)c2ccc3c(C4CCCCC4)c(-c4ccoc4)n(CC(=O)N4CCOCC4)c3c2)CCNC1`, the IC50 (Table 4, class ranges) is reported as 200 to 1000 nM.
With `COc1ccc(OC)c(S(=O)(=O)NC(=O)c2ccc3c(C4CCCCC4)c(-c4ccoc4)n(CC(=O)N4CCOCC4)c3c2)c1` the IC50 (Table 2, HCV NS5B polymerase) was < 200 nM.
In the case of `O=C(O)c1ccc2c(C3CCCCC3)c(-c3ccoc3)n(CC(=O)N3CCCCC3)c2c1`, the IC50 (Table 1, HCV NS5B polymerase) is reported as < 200 nM.
